A mixed list of measured activities; the numbers were collected in NIAID ChemDB.

Common to all: tests in culture; agent: HIV-1

Blank or dashed fields: not listed here. Rows are shuffled and stem from different studies. ECn is the concentration giving n% inhibition of infection, replication or growth.

SMILES,measure,strain,conditions,method,cell line,value
N#Cc1cc(Cl)cc(Oc2cc(OCc3[nH]nc4nc(N5CCC(N)C5)ccc34)ccc2Cl)c1,EC95,,,p24,MT-4,<20 µM
C#CCOCn1c(C(=C)c2cc(C)cc(C)c2)c(CC)c(=O)[nH]c1=O,EC50,IIIB,,cytopathic effect / MTT,MT-4,0.03 µM
CCCC[C@H](NP(=O)(OC[C@@H]1C=C[C@H](n2cc(C)c(=O)[nH]c2=O)O1)Oc1ccccc1)C(=O)OC,EC50,,,,CEM,0.5 µM
C=C(c1ccccc1)c1c(CC)c(=O)[nH]c(=O)n1COCC=C(C)C,EC50,IIIB,,cytopathic effect / MTT,MT-4,3.1 µM
Cc1cn([C@@H]2O[C@H](CO)[C@@H](F)[C@@H]2F)c(=O)nc1N,EC50,IIIB,,antigen,H9,>1000 µM
CC(C)(C)OC(=O)N1[C@H](CO)CC(F)(F)[C@H]1n1ccc(=O)[nH]c1=O,EC90,LAI,,,PBMC,>100 µM
C=C(C)COCn1c(C(=C)c2cc(C)cc(C)c2)c(CC)c(=O)[nH]c1=O,EC50,IIIB,,cytopathic effect / MTT,MT-4,0.1 µM
COc1ccc(CCN2C(=O)/C(=C\c3cccc(Oc4ccccc4)c3)N(CCc3ccc(OC)c(OC)c3)C2=S)cc1OC,EC50,IIIB,,cytopathic effect / MTT,MT-4,>37.8 µg/mL
Nc1nc2c(ncn2C2CC(O)C(COP(=O)(S)OC3CC(n4cnc5c(=O)[nH]c(N)nc54)OC3COP(O)(=S)OC3CC(n4cnc5c(=O)[nH]c(N)nc54)OC3CO)O2)c(=O)[nH]1,EC50,IIIB,,cytopathic effect / MTT,MT-4,37.1 µM
CC1(C)Oc2ccc3cc(CO)c(=O)oc3c2[C@@H](OC(=O)C23CCC(C)(C(=O)O2)C3(C)C)[C@H]1OC(=O)C12CCC(C)(C(=O)O1)C2(C)C,EC50,IIIB,,p24,PBMC,0.000188 µg/mL
CN(C)C=Nc1ccn([C@H]2C[C@H](CO)[C@@H](CO)O2)c(=O)n1,EC50,TIBO-resistant,,XTT,MT-4,9.1 µM
CC(C)[C@H](NC(=O)OCc1ccccc1)C(=O)N[C@@H](Cc1ccccc1)[C@@H](O)[C@@H](NCc1ccccc1)C(=O)N[C@H](C(=O)NCc1nc2ccccc2[nH]1)C(C)C,EC50,IIIB,,MTT / p24,U-937,0.048 µM
Cc1nc(C(CN)NC(=O)C(=O)Nc2ccc3c(c2)OCO3)sc1CO,EC50,IIIB,,p24 / ELISA,MT-2,>79 µM
Cc1cn([C@@H]2O[C@H](COC(c3ccccc3)(c3ccccc3)c3ccccc3)[C@@H](N=[N+]=[N-])[C@@H]2O)c(=O)[nH]c1=O,EC50,IIIB,,antigen,H9,>1000 µM
O=c1nc(N=CN2CCOCC2)ccn1[C@H]1C[C@H](CO)[C@@H](CO)O1,EC50,IIIB,,XTT,MT-4,3.2 µM
Cc1c(Cc2ccccc2)nc(OC2CCCC2)[nH]c1=O,EC50,IIIB,,cytopathic effect / MTT,MT-4,10 µM
CC(=O)OCc1c(C)c2ccc3c(c2oc1=O)[C@@H](OC(=O)C12CCC(C)(C(=O)O1)C2(C)C)[C@@H](OC(=O)C12CCC(C)(C(=O)O1)C2(C)C)C(C)(C)O3,EC50,IIIB,,p24,PBMC,0.00012 µg/mL
O=C(OC1COCOC1)N(Cc1ccccc1)CC(O)CN(CC1CCCC1)S(=O)(=O)c1ccccc1,EC90,IIIB,,p24,CEM,1 µM
NCC(NC(=O)c1ccc(-c2ccc3c(c2)OCO3)[nH]1)c1ncc(CO)s1,EC50,BaL,,p24 / ELISA,PBMC,1.9 µM
C=C(c1cc(C)cc(C)c1)c1c(CC)c(=O)[nH]c(=O)n1COC/C(C)=C/c1ccccc1,EC50,IIIB,,cytopathic effect / MTT,MT-4,0.03 µM
Cc1cn([C@@H]2O[C@H](CO)[C@@H](N=[N+]=[N-])[C@H]2F)c(=O)[nH]c1=O,EC50,IIIB,,antigen,H9,>1000 µM
COc1ccc(S(=O)(=O)N(CC(C)C)C(=O)C(=O)C(=O)[C@@H](Cc2ccccc2)NC(=O)O[C@H]2CCOC2)cc1,EC50,IIIB,,p24,CEM,<1 µM
CSc1nc(=O)n(COCCO)c2c1CCC2,EC50,BRU,,cytopathic effect / MTT,CEM-C113 + CEM/C113,>30 µg/mL
Nc1ncnc2c1ncn2[C@@H]1OC[C@H](CCP(=O)(O)O)C12CC2,EC90,LAV-1,,RT activity,PBMC,80 µM
NS(=O)(=O)c1ccc(NC(=O)COc2cc(Cl)cc(Oc3cncc(Br)c3)c2)c(Cl)c1,EC95,,,p24,MT-4,<20 µM
CCC[C@H](NP(=O)(OC[C@@H]1C=C[C@H](n2cc(C)c(=O)[nH]c2=O)O1)Oc1ccccc1)C(=O)OC,EC50,,,,CEM,0.42 µM
Nc1ncnc2c1ncn2[C@@H]1OC[C@H](/C=C/P(=O)(O)O)C12CC2,EC50,LAV-1,,RT activity,PBMC,62.8 µM
Nc1ccc(S(=O)(=O)N(CC2CCCC2)C[C@@H](O)CN(CCc2ccccc2)C(=O)O[C@H]2CCOC2)cc1,EC90,IIIB,,p24,CEM,0.1 µM
CCC(C)Oc1nc(Cc2ccccc2)c(C)c(=O)[nH]1,EC50,IIIB,,cytopathic effect / MTT,MT-4,2.9 µM
Nc1nc2c(ncn2C2CC(O)C(COP(=O)(O)OP(=O)(O)OC3CC(n4cnc5c(=O)[nH]c(N)nc54)OC3COP(=O)(O)OP(=O)(O)OC3CC(n4cnc5c(=O)[nH]c(N)nc54)OC3COP(=O)(O)O)O2)c(=O)[nH]1,EC50,IIIB,,cytopathic effect / MTT,MT-4,>100 µM
N#Cc1cc(Cl)cc(Oc2cc(OCc3nc(-c4ccccc4)no3)ccc2Cl)c1,EC95,,,p24,MT-4,<20 µM
CC(C)(C)OC(=O)N1[C@H](CO)CC(F)(F)[C@@H]1n1ccc(=O)[nH]c1=O,EC90,LAI,,RT activity,PBMC,>100 µM
CC1(C)Oc2c(CBr)cc3ccc(=O)oc3c2[C@@H](OC(=O)C23CCC(C)(C(=O)O2)C3(C)C)[C@H]1OC(=O)C12CCC(C)(C(=O)O1)C2(C)C,EC50,IIIB,,p24,PBMC,0.0176 µg/mL
O=c1[nH]c(=O)n(COCCO)c2c1CCCC2,EC50,BRU,,cytopathic effect / MTT,CEM-C113 + CEM/C113,>30 µg/mL
CC(C)[C@H](NC(=O)OCc1ccccc1)C(=O)N[C@@H](Cc1ccccc1)[C@@H](O)[C@@H](NCc1ccc(Br)cc1)C(=O)N[C@H](C(=O)NCc1nc2ccccc2[nH]1)C(C)C,EC50,RF,,p24,MT-4,0.14 µM
COc1ccc(S(=O)(=O)N(CC(C)C)C[C@@H](O)CCN(CC2CCCC2)S(=O)(=O)CC2CS(=O)(=O)CC2O)cc1,EC90,IIIB,,p24,CEM,1 µM
CCCOc1nc(Cc2ccccc2)c(CC)c(=O)[nH]1,EC50,IIIB,,cytopathic effect / MTT,MT-4,22 µM
O=C(c1ccccc1)N(CCc1ccccc1)C[C@H](O)CN(CC1CCCC1)S(=O)(=O)C1CCS(=O)(=O)CC1,EC90,IIIB,,p24,CEM,1 µM
Cc1ccc(-c2nnc(COc3ccc(Cl)c(Oc4cc(Cl)cc(C#N)c4)c3)o2)cc1,EC95,,,p24,MT-4,<20 µM
Nc1ncnc2c1ncn2[C@H]1C=C[C@](OCP(=O)(O)O)(C2CC2)C1,EC50,,,XTT / absorbance,T4,18.6 µM
C/C=C/C=C/C=NC=Nc1ccn([C@H]2C[C@H](CO)[C@@H](CO)O2)c(=O)n1,EC50,TIBO-resistant,,XTT,MT-4,10.8 µM
Cc1cn([C@@H]2O[C@H](CO)[C@@H](F)[C@H]2F)c(=O)[nH]c1=O,EC50,IIIB,,antigen,H9,>1000 µM
C=C(COCP(=O)(O)O)Nn1cnc2c(N)ncnc21,EC50,,,,,>10 µM
Cc1cn([C@H]2C=C[C@@H](CO)O2)c(=O)[nH]c1=O,EC50,,,,CEM,0.65 µM
CCc1c(Cc2ccccc2)nc(OC(C)C)[nH]c1=O,EC50,IIIB,,cytopathic effect / MTT,MT-4,26 µM
C=C(c1ccccc1)c1c(CC)c(=O)[nH]c(=O)n1COCC,EC50,IIIB,,cytopathic effect / MTT,MT-4,2.8 µM
COc1ccc(CCN2C(=O)/C(=C\c3ccccc3-c3ccco3)N(CCc3ccc(OC)c(OC)c3)C2=S)cc1OC,EC50,IIIB,,cytopathic effect / MTT,MT-4,>17.35 µg/mL
CC1(C)Oc2ccc3cc(C(Br)Br)c(=O)oc3c2[C@@H](OC(=O)C23CCC(C)(C(=O)O2)C3(C)C)[C@H]1OC(=O)C12CCC(C)(C(=O)O1)C2(C)C,EC50,IIIB,,p24,PBMC,0.000119 µg/mL
COCCN(C)c1ccc2c(COc3ccc(Cl)c(Oc4cc(Cl)cc(C#N)c4)c3)[nH]nc2n1,EC50,,,p24,MT-4,<20 µM
CC(C)(C)OC(=O)N1[C@H](CO)CC(F)(F)[C@@H]1n1cnc2ncnc(Cl)c21,EC90,LAI,,,PBMC,>100 µM
N#Cc1cc(Cl)cc(Oc2cc(OCc3[nH]nc4ncccc34)ccc2Cl)c1,EC95,,,p24,MT-4,<20 µM
Cc1cn([C@@H]2O[C@H](CO)[C@@H](F)[C@H]2N=[N+]=[N-])c(=O)[nH]c1=O,EC50,IIIB,,antigen,H9,>1000 µM
C=CCOCn1c(C(=C)c2cc(C)cc(C)c2)c(CC)c(=O)[nH]c1=O,EC50,IIIB,,cytopathic effect / MTT,MT-4,0.03 µM
O=c1[nH]c(=O)n(COCc2ccccc2)c2c1CCC2,EC50,BRU,,cytopathic effect / MTT,CEM-C113 + CEM/C113,>30 µg/mL
CC(C)(C)OC(=O)N1[C@H](CO)CC(F)(F)[C@H]1n1cnc2ncnc(N)c21,EC90,LAI,,RT activity,PBMC,>100 µM
CCCCOc1nc(Cc2ccccc2)c(C)c(=O)[nH]1,EC50,IIIB,,cytopathic effect / MTT,MT-4,6.2 µM
CC(C)[C@H](NC(=O)[C@H](NCc1ccc(Cl)cc1)[C@H](O)[C@H](Cc1ccccc1)NC(=O)[C@@H](NC(=O)OCc1ccccc1)C(C)(C)C)C(=O)NCc1nc2ccccc2[nH]1,EC50,IIIB,,MTT / p24,HuT-78 + HUT 78,0.0203 µM
O=c1nc(N=CN2CCCC2)ccn1[C@H]1C[C@H](CO)[C@@H](CO)O1,EC50,TIBO-resistant,,XTT,MT-4,6.8 µM
CC(=O)OC[C@H]1O[C@@H](n2cc(C)c(=O)[nH]c2=O)C[C@@H]1F,EC50,IIIB,,antigen,H9,>1000 µM
CC(C)(C)OC(=O)N1[C@H](CO)CC(F)(F)[C@@H]1n1cc(F)c(=O)[nH]c1=O,EC90,LAI,,,PBMC,90.8 µM
N#Cc1cc(Cl)cc(Oc2cc(Cl)cc(OCC(=O)Nc3ccc(C(N)=O)cc3Cl)c2)c1,EC50,,,p24,MT-4,<20 µM
O=c1nc(N=CN2CCCCC2)ccn1[C@H]1C[C@H](CO)[C@@H](CO)O1,EC50,IIIB,,XTT,MT-4,12.8 µM
COc1ccc(CCN2C(=O)/C(=C\c3cccc(Br)c3)N(CCc3ccc(OC)c(OC)c3)C2=S)cc1OC,EC50,IIIB,,cytopathic effect / MTT,MT-4,>109.2 µg/mL
O=c1[nH]c(=S)c2c(n1COCCO)CCC2,EC50,BRU,,cytopathic effect / MTT,CEM-C113 + CEM/C113,>30 µg/mL
Nc1ncnc2c1ncn2[C@@H]1C[C@@](OCP(=O)(O)O)(C2CC2)[C@@H](O)[C@H]1O,EC50,,,XTT / absorbance,T4,>100 µM
Cc1c(CBr)c(=O)oc2c3c(ccc12)OC(C)(C)[C@H](OC(=O)C12CCC(C)(C(=O)O1)C2(C)C)[C@@H]3OC(=O)C12CCC(C)(C(=O)O1)C2(C)C,EC50,IIIB,,p24,PBMC,0.000192 µg/mL
C=C(c1ccccc1)c1c(CC)c(=O)[nH]c(=O)n1COCC#Cc1ccccc1,EC50,IIIB,,cytopathic effect / MTT,MT-4,3.8 µM
CC(C)(C)OC(=O)N1[C@H](CO)CC(F)(F)[C@H]1n1cnc2c(N)ncnc21,EC90,LAI,,RT activity,PBMC,>100 µM
CCC(C)Oc1nc(Cc2ccccc2)cc(=O)[nH]1,EC50,IIIB,,cytopathic effect / MTT,MT-4,5.5 µM
CC(C)[C@H](NC(=O)[C@H](NCc1ccccc1)[C@H](O)[C@H](Cc1ccccc1)NC(=O)[C@@H](NC(=O)OCc1ccccc1)C(C)(C)C)C(=O)NCc1ccccc1,EC50,IIIB,,MTT / p24,HuT-78 + HUT 78,0.145 µM
Cc1cn([C@H]2C[C@H](N=[N+]=[N-])C(COC(=O)COC[C@H]3O[C@@H](O[C@@H]4OC[C@@H](O[C@H]5[C@@H](OS(=O)(=O)[O-])[C@@H](OS(=O)(=O)[O-])[C@H](O)O[C@@H]5CO)[C@H](O)[C@H]4O)[C@H](O)[C@@H](O)[C@@H]3O[C@@H]3O[C@H](COS(=O)(=O)[O-])C[C@H](O)[C@H]3OS(=O)(=O)[O-])O2)c(=O)[nH]c1=O,EC50,Clinical isolate,"clinical isolate, multidrug-resistant",p24 / ELISA,PBMC,4.22 µg/mL
N#Cc1cc(Cl)cc(Oc2cc(Cl)cc(OCC(=O)Nc3ccc4[nH]cnc4c3Cl)c2)c1,EC50,,,p24,MT-4,<20 µM
COc1ccc(CCN2C(=O)/C(=C\c3cccc(Cl)c3)N(CCc3ccc(OC)c(OC)c3)C2=S)cc1OC,EC50,IIIB,,cytopathic effect / MTT,MT-4,>38.75 µg/mL
Nc1cccc(S(=O)(=O)N(CC2CCCC2)C[C@@H](O)CN(CCc2ccccc2)CC(=O)c2ccccc2)c1,EC50,IIIB,,p24,CEM,<1 µM
COc1ccc(CCN2C(=O)/C(=C\c3ccccc3Cl)N(CCc3ccc(OC)c(OC)c3)C2=S)cc1OC,EC50,IIIB,,cytopathic effect / MTT,MT-4,>23.1 µg/mL
NCCCC[C@H](COC(N)=O)NC(=O)CN(CCCCN)C(=O)OC[C@@H](N)CCCNc1c(N)c(=O)c1=O,EC50,,,cytopathic effect / MTT,MT-4,12.4 µM
C=C(c1cccc2ccccc12)c1c(CC)c(=O)[nH]c(=O)n1COCC,EC50,IIIB,,cytopathic effect / MTT,MT-4,4 µM